Compound potency records, mixed from different reports. Data source: NIAID ChemDB in PubChem.

All rows: whole-cell or culture tests; organism: HIV-1; cells: MT-4; read-out: EC50

ECn: concentration that inhibits the pathogen or its effect by n%. Lines come from different laboratories, so protocols vary. An empty or dashed field is not shown.

CC(C)(C)NC(=O)[C@@H]1CN(Cc2cc3ccncc3o2)CCN1C[C@@H](O)C[C@@H](Cc1ccccc1)C(=O)N[C@H]1c2ccccc2C[C@H]1O ; strain: IIIB ; method: p24 ; result: <0.0125 µM
Cc1cc(C)c(-n2nnnc2SCC(=O)Nc2cccc3cccnc23)c(C)c1 ; method: p24 ; result: <10 µM
O=C1N(Cc2ccccc2)c2cscc2S(=O)(=O)N1Cc1ccccc1 ; strain: MN ; method: syncytia ; result: 2.3 µM
c1ccc(CSc2nnnn2-c2cccc3ccccc23)nc1 ; method: p24 ; result: <10 µM
CC(C)(C)NC(=O)[C@@H]1CCCN1C[C@@H](O)C[C@@H](Cc1ccccc1)C(=O)N[C@H]1c2ccccc2C[C@H]1O ; strain: IIIB ; method: p24 ; result: <1.5 µM
CC(C)(C)NC(=O)[C@@H]1CN(Cc2cnc3ccccc3c2)CCN1C[C@@H](O)C[C@@H](Cc1ccccc1)C(=O)N[C@H]1c2ccccc2C[C@H]1O ; strain: IIIB ; method: p24 ; result: <0.025 µM
NCCCCN(Cc1nc2ccccc2[nH]1)C1CCCc2cccnc21 ; strain: NL4-3 ; result: 0.0096 µM
CC(C)c1c(C(C)O)cn(Cc2ccncc2)c1Sc1cc(Cl)cc(Cl)c1 ; strain: IIIB ; method: cytopathic effect / MTT ; result: 26 µM
Cc1cc(C)c(-n2nnnc2SCC(=O)Nc2cc(F)ccc2F)c(C)c1 ; method: p24 ; result: <10 µM
CC(c1cc(=O)[nH]c(SC2CCCC2)n1)c1c(F)cccc1F ; mutations: RT-Y181C ; method: cytopathic effect / MTT ; result: 2.5 µM
CC(C)(C)NC(=O)[C@@H]1CN(Cc2cnc3ccoc3c2)CCN1C[C@@H](O)C[C@@H](Cc1ccccc1)C(=O)N[C@H]1c2ccccc2C[C@H]1O ; strain: IIIB ; method: p24 ; result: <0.003 µM
CCOC(=O)c1cn(Cc2ccncc2)c(Sc2cc(Cl)cc(Cl)c2)c1C1CCCCC1 ; strain: IIIB ; method: cytopathic effect / MTT ; result: 0.64 µM
Cc1ccnc2c1NC(=O)c1cccnc1N2C1CC1 ; strain: RF ; method: syncytia ; result: 0.04 µM
CC(C)(C)NC(=O)[C@@H]1CN(Cc2ccccc2)CCN1C[C@@H](O)C[C@@H](Cc1ccccc1)C(=O)N[C@H]1c2ccccc2C[C@H]1O ; strain: IIIB ; method: p24 ; result: <0.05 µM
CC(C)CN(C[C@@H](O)[C@H](Cc1ccccc1)NC(=O)O[C@H]1CCOC1)S(=O)(=O)c1ccc(N)cc1 ; strain: IIIB ; method: cytopathic effect / MTT ; result: 0.054 µM
Cc1c(Cc2c(F)cccc2F)nc(NC2CCCCC2)[nH]c1=O ; strain: IIIB ; method: cytopathic effect / MTT ; result: 0.03 µM
Cc1nc2ccccc2c(-c2ccc3c4c(ccnc24)[C@@H]2C[C@H]32)c1[C@H](OC(C)(C)C)C(=O)O ; strain: IIIB ; method: ATP ; result: 4.18 µM
CC(=O)c1ccccc1NC(=O)CSc1nnnn1-c1c(C)cc(C)cc1C ; method: p24 ; result: <10 µM
COC(=O)[C@H](CO)NC(=O)[C@H](C)NC(=O)COc1ccc2ccccc2c1 ; strain: IIIB ; method: cytopathic effect / MTT ; result: >100 µg/mL
N#CCN1C(=O)N(Cc2cccc(F)c2)S(=O)(=O)c2cscc21 ; strain: NDK ; method: syncytia ; result: 0.6 µM
CCc1cc(NCc2nc3c(C)ccc(C)c3o2)c(=O)[nH]c1C ; strain: RUTZ ; method: p24 ; result: <0.05 µM
CC(C)c1c(C(O)c2ccccc2)cn(Cc2ccncc2)c1Sc1cc(Cl)cc(Cl)c1 ; strain: IIIB ; method: cytopathic effect / MTT ; result: 1.2 µM
CC(C)Nc1cccnc1N1CCN(C(=O)c2ccc(-c3ccc(NS(C)(=O)=O)cc3)[nH]2)CC1 ; strain: IIIB ; method: cytopathic effect / MTT ; result: 0.9 µM
C1CNCCNCC(C2CNCCNCCCNCCNC2)CNCCNC1 ; strain: IIIB ; method: cytopathic effect / MTT ; result: 0.33 µg/mL
CC(C)(C)NC(=O)[C@@H]1CN(Cc2csc3ncccc23)CCN1C[C@@H](O)C[C@@H](Cc1ccccc1)C(=O)N[C@H]1c2ccccc2C[C@H]1O ; strain: IIIB ; method: p24 ; result: <0.006 µM
CCc1cc(NCc2nc3c(Cl)ccc(Cl)c3o2)c(=O)[nH]c1C ; strain: WMJ-2 ; method: p24 ; result: <0.2 µM
CCn1cc(C(=O)O)c(=O)c2cc(F)c(N3CCN(c4ncccn4)CC3)c(OC(F)F)c21 ; strain: IIIB ; method: cytopathic effect / MTT ; result: 0.61 µM
CCCNc1nc(C(C)c2c(F)cccc2F)c(C)c(=O)[nH]1 ; mutations: RT-Y181C ; method: cytopathic effect / MTT ; result: 0.2 µM
CCc1cc(NCc2nc3c(Cl)ccc(Cl)c3o2)c(=O)[nH]c1C ; strain: DLV-resistant MF (RT-P236L) ; mutations: RT-P236L ; method: p24 ; result: <0.43 µM
CC(C)(C)NC(=O)[C@@H]1CN(S(=O)(=O)c2cccnc2)CCN1C[C@@H](O)C[C@@H](Cc1ccccc1)C(=O)N[C@H]1c2ccccc2C[C@H]1O ; strain: IIIB ; method: p24 ; result: <0.2 µM
Cc1cc(C)c(-n2nnnc2SCC(=O)Nc2cccc(F)c2C#N)c(C)c1 ; method: p24 ; result: <10 µM
NC(=O)OCc1cn(Cc2ccncc2)c(Sc2cc(Cl)cc(Cl)c2)c1C1CC1 ; strain: IIIB ; method: cytopathic effect / MTT ; result: 0.65 µM
Cc1ccnc2c1NC(=O)c1cccnc1N2C1CC1 ; mutations: RT-M41L T215Y K103N ; result: <3 µM
Cc1cc2oc(CN3CCN(C[C@@H](O)C[C@@H](Cc4ccccc4)C(=O)N[C@H]4c5ccccc5C[C@H]4O)[C@H](C(=O)NC(C)(C)C)C3)cc2cn1 ; strain: IIIB ; method: p24 ; result: <0.012 µM
Cc1cn([C@H]2C[C@H](F)[C@@H](CO)O2)c(=O)[nH]c1=O ; strain: IIIB ; method: cytopathic effect / trypan blue ; result: 0.003 µM
COC(=O)[C@H](CO)NC(=O)[C@H](CO)NC(=O)COc1ccc2ccccc2c1 ; strain: IIIB ; method: cytopathic effect / MTT ; result: >100 µg/mL
O=C(CSc1nnnn1-c1ccccc1Br)Nc1ccccc1Cl ; method: p24 ; result: <10 µM
Cc1c(C(C)c2c(F)cccc2F)nc(NC(C)C)[nH]c1=O ; mutations: RT-Y181C ; method: cytopathic effect / MTT ; result: 0.5 µM
C1CNCCNCCCN[C@H]([C@H]2CNCCCNCCNCCCN2)CNC1 ; strain: IIIB ; method: cytopathic effect / MTT ; result: 0.21 µg/mL
CC(C)(C)NC(=O)[C@@H]1CN(C(=O)c2cnc3occc3c2)CCN1C[C@@H](O)C[C@@H](Cc1ccccc1)C(=O)N[C@H]1c2ccccc2C[C@H]1O ; strain: IIIB ; method: p24 ; result: <0.1 µM
COC(=O)[C@@H](NC(=O)CNC(=O)COc1ccc2ccccc2c1)C(C)C ; strain: IIIB ; method: cytopathic effect / MTT ; result: >82 µg/mL
Cc1cc(C)c(-n2nnnc2SCC(=O)Nc2ccc(F)cc2Br)c(C)c1 ; method: p24 ; result: <10 µM
COC(=O)[C@H](CCSC)NC(=O)[C@H](C)NC(=O)COc1ccc2ccccc2c1 ; strain: IIIB ; method: cytopathic effect / MTT ; result: >48 µg/mL
Nc1ccn([C@H]2CC[C@@H](CO)O2)c(=O)n1 ; strain: 263)(ddC ; method: p24 ; result: 4.8 µM
COC(=O)CNC(=O)[C@H](CO)NC(=O)COc1ccc2ccccc2c1 ; strain: IIIB ; method: cytopathic effect / MTT ; result: >100 µg/mL
CCn1cc(C(=O)O)c(=O)c2cc(F)c(N3CCN(c4ccccc4OC)CC3)c(OC(F)F)c21 ; strain: HE ; method: cytopathic effect / MTT ; result: 0.48 µM
COC(=O)[C@H](CCSC)NC(=O)[C@H](CCSC)NC(=O)COc1ccc2ccccc2c1 ; strain: IIIB ; method: cytopathic effect / MTT ; result: >100 µg/mL
Cc1cc(C)cc(S(=O)(=O)c2c(C(=O)NC(C)C(N)=O)[nH]c3ccc(Cl)cc23)c1 ; strain: IIIB ; method: MTT ; result: 0.0016 µM

The last 7 rows once more:

| smiles | strain | mutations | method | result |
|---|---|---|---|---|
| Cc1cc(C)c(-n2nnnc2SCC(=O)Nc2ccc(F)cc2Br)c(C)c1 |  |  | p24 | <10 µM |
| COC(=O)[C@H](CCSC)NC(=O)[C@H](C)NC(=O)COc1ccc2ccccc2c1 | IIIB |  | cytopathic effect / MTT | >48 µg/mL |
| Nc1ccn([C@H]2CC[C@@H](CO)O2)c(=O)n1 | 263)(ddC |  | p24 | 4.8 µM |
| COC(=O)CNC(=O)[C@H](CO)NC(=O)COc1ccc2ccccc2c1 | IIIB |  | cytopathic effect / MTT | >100 µg/mL |
| CCn1cc(C(=O)O)c(=O)c2cc(F)c(N3CCN(c4ccccc4OC)CC3)c(OC(F)F)c21 | HE |  | cytopathic effect / MTT | 0.48 µM |
| COC(=O)[C@H](CCSC)NC(=O)[C@H](CCSC)NC(=O)COc1ccc2ccccc2c1 | IIIB |  | cytopathic effect / MTT | >100 µg/mL |
| Cc1cc(C)cc(S(=O)(=O)c2c(C(=O)NC(C)C(N)=O)[nH]c3ccc(Cl)cc23)c1 | IIIB |  | MTT | 0.0016 µM |